Measured values from several laboratories, pooled; numbers as filed in NIAID ChemDB.

Shared fields: whole-cell or culture tests; species: Mycobacterium tuberculosis

ECn is the concentration giving n% inhibition of infection, replication or growth. Rows are shuffled and stem from different studies. Inhibition is in % at the dose shown (toxicity tests: loss of growth or viability). A number after MIC or MFC names an inhibition level or a share of isolates. Blank or dashed fields: not listed here. MIC bound: limit read from a one-dose screen.

compound | strain | read-out | cell line | dose | method | changes | conditions | value
NNC(=O)CNc1ccc2ccccc2c1 | H37Rv | inhibition |  | 1 µg/mL |  |  | 21 d | 100%
COc1ccc2c3c1O[C@H]1C[C@@H](O)C=C[C@@]31CCN(C)C2 | H37Rv | inhibition |  | 12.5 µg/mL | BACTEC |  |  | 9%
Cc1ccc(OC(=O)c2ccc(N)cc2O)cc1 | H37Rv | MIC |  |  |  |  |  | 0.0078 µg/mL
CCCC12C=C(OC)C(=O)C=C1OC(c1cc(OC)c(OC)c(OC)c1)C2C | H37Rv | MIC bound |  |  | BACTEC |  |  | >12.5 µg/mL
CO[C@H]1/C=C/O[C@@]2(C)Oc3c(C)c(O)c4c(O)c(c(C=Nc5ccccc5)c(O)c4c3C2=O)NC(=O)/C(C)=C\C=C\[C@H](C)[C@H](O)[C@@H](C)[C@@H](O)[C@@H](C)[C@H](OC(C)=O)[C@@H]1C | H37Rv | EC50 |  |  |  |  |  | 5 µg/mL
O=C(NN1C(=O)CSC1c1ccccc1[N+](=O)[O-])c1cc(-c2ccc(Cl)cc2)n[nH]1 |  | MIC |  |  | broth dilution |  |  | 1.9 µg/mL
C[n+]1cc2c(cn3c4ccccc4ccc23)c2ccccc21 | H37Ra | MIC |  |  | resazurin / visual reading |  |  | 0.7 µg/mL
NC1=C([N+](=O)[O-])NC2OC[C@@H](OCc3ccc(OC(F)(F)F)cc3)CN12 | wtH37Rv | MIC |  |  | broth dilution |  |  | >100 µM
Cc1ccc(NCCO)c2c(=O)c3ccccc3sc12 | H37Rv | MIC bound |  |  | BACTEC |  |  | >12.5 µg/mL
CC[C@H]1OC(=O)[C@H](C)C(=O)[C@H](C)[C@@H](O[C@@H]2O[C@H](C)C[C@H](N(C)C)[C@H]2O)[C@](C)(OC)C[C@@H](C)/C(=N\OCOCc2ccccc2)[C@H](C)[C@@H](O)[C@]1(C)O |  | MIC |  |  |  |  |  | >128 µM
O=C(Nc1cccc(F)c1)C1(c2cccs2)CCOCC1 | CDC1551 | EC50 |  |  | turbidity |  |  | 200 µM
O=C(Oc1ccc(Br)cc1C(=O)Nc1ccc(C(F)(F)F)cc1)c1cnccn1 | multidrug resistant 7357/1998 | MIC |  |  |  |  | 14 d | 0.125 µM
CCOC(=O)C1=C(c2ccco2)NN=C(c2ccccc2)C1 | H37Rv | inhibition |  | 12.5 µg/mL | BACTEC |  |  | 34%
CCCCCCCCCCCCCCCCCCCCCCCCCC(=O)OCCc1ccc(OC)cc1 | H37Rv (ATCC 27294) | MIC |  |  |  |  |  | >128 µg/mL
c1ccc2c(c1)n1c(N3CCCC3)[n+]3ccccc3c1c1c3cccc[n+]3c(N3CCCC3)n21 | H37Rv | inhibition |  | 6.25 µg/mL | BACTEC |  |  | 73%
O=C(Oc1cc(Cl)ccc1C(=O)Nc1ccc(C(F)(F)F)cc1)c1cnccn1 | extensively drug resistant Praha 131 | MIC |  |  |  |  | 14 d | 0.125 µM
C=c1[nH]c(=O)c(=C)[nH]c1=O | H37Rv | inhibition |  | 12.5 µg/mL | BACTEC |  |  | 4%
CCCCCCCCCCCCCCCCC(=O)OCCc1ccc(O)cc1 | H37Rv (ATCC 27294) | MIC |  |  |  |  |  | >128 µg/mL
Cc1ccc(NC(=O)C2(c3cccs3)CCOCC2)c(C)c1 | CDC1551 | EC50 |  |  | turbidity |  |  | 200 µM
CC[C@H]1OC(=O)[C@H](C)C(=O)[C@H](C)[C@@H](O[C@@H]2O[C@H](C)C[C@H](N(C)C)[C@H]2O)[C@](C)(OC)C[C@@H](C)C(=O)[C@H](C)[C@H]2N(CCCCCc3ccccc3)C(=O)O[C@]12C |  | MIC |  |  |  |  |  | 3 µM
CO[C@H]1/C=C/O[C@@]2(C)Oc3c(C)c(O)c4c(O)c(cc(O)c4c3C2=O)NC(=O)/C(C)=C\C=C\[C@H](C)[C@H](O)[C@@H](C)[C@@H](O)[C@@H](C)[C@H](OC(C)=O)[C@@H]1C | H37RV ATCC9360 | MIC |  |  |  |  |  | 0.05 µg/mL
CCCCCCCCCCCCCCCCCCCCCCCC(=O)OCCc1ccc(OC)cc1 | H37Rv (ATCC 27294) | MIC |  |  |  |  |  | >128 µg/mL
O=C(Oc1ccc(Cl)cc1C(=O)Nc1cccc(C(F)(F)F)c1)c1cnccn1 | extensively drug resistant Praha 131 | MIC |  |  |  |  | 14 d | 1 µM
CN[C@@H]1[C@H](O[C@H]2[C@H](O[C@H]3[C@H](O)[C@@H](O)[C@H](N=C(N)N)[C@@H](O)[C@@H]3N=C(N)N)O[C@@H](C)[C@]2(O)C=O)O[C@@H](CO)[C@H](O)[C@H]1O | H37Rv | MIC |  |  |  |  |  | 0.3 µg/mL
O=C(Oc1ccc(Cl)cc1C(=O)Nc1cccc(Cl)c1)c1cnccn1 | H37Rv 331/88 | MIC |  |  |  |  | 21 d | 4 µM
C/C=C/C1=CC=C/C(=C2\C(=O)CNC2=O)O1 | H37Rv | MIC |  |  | resazurin / visual reading | p-aminosalicylic acid-resistant |  | 3.1 µg/mL
CCc1nc2ccccc2n1CCCCSc1nc(-c2ccccc2)cs1 | H37Rv-MA | MIC90 |  |  | turbidity / fluorescence |  |  | 5.3 µM
CO[C@H]1/C=C/O[C@@]2(C)Oc3c(C)c(O)c4c(O)c(c(/C=N/O)c(O)c4c3C2=O)NC(=O)/C(C)=C\C=C\[C@H](C)[C@H](O)[C@@H](C)[C@@H](O)[C@@H](C)[C@H](OC(C)=O)[C@@H]1C | H37Rv | EC50 |  |  |  |  |  | 5 µg/mL
Cc1ccc(N=NC2Sc3nc4ccccc4n3C2=O)cc1 | H37Rv | MIC bound |  |  | BACTEC |  |  | >12.5 µg/mL
CCCCCCCCCCCCCCCCCCCCCCC(=O)OCCc1ccc(O)cc1 | H37Rv (ATCC 27294) | MIC |  |  |  |  |  | >128 µg/mL
Nc1ncnc2c1ncn2[C@H]1C[C@H](O)[C@@H](COS(=O)(=O)NC(=O)c2ccccc2O)O1 | H37Rv | MIC |  |  |  |  |  | 25 µM
COc1c(C)[nH]ccc1=O | H37Rv | MIC bound |  |  | BACTEC |  |  | >12.5 µg/mL
Nc1ncnc2c1ncn2[C@H]1C=C[C@@H](COS(=O)(=O)NC(=O)c2ccccc2O)C1 | H37Rv | MIC |  |  |  |  |  | >200 µM
Cc1cccc(OC(=O)c2ccc(NC(=O)c3ccccc3C(=O)O)cc2O)c1 | H37Rv | MIC |  |  |  |  |  | 0.25 µg/mL
Cc1ccc(NC(=O)C2(c3cccs3)CCOCC2)cc1Cl | CDC1551 | EC50 |  |  | turbidity |  |  | 200 µM
CO[C@H]1/C=C/O[C@@]2(C)Oc3c(C)c(O)c4c(O)c(c(/C=N/c5ccccn5)c(O)c4c3C2=O)NC(=O)/C(C)=C\C=C\[C@H](C)[C@H](O)[C@@H](C)[C@@H](O)[C@@H](C)[C@H](OC(C)=O)[C@@H]1C | H37Rv | EC50 |  |  |  |  |  | 5 µg/mL
CCc1nc2ccccc2n1CCCCOc1ccc2sc(C)nc2c1 | H37Rv-MA | MIC90 |  |  | turbidity / fluorescence |  |  | 2.7 µM
COc1cccc2c1C(=O)c1c(O)c3c(c(O)c1C2=O)C[C@@](O)(/C(C)=N/NC(=O)c1ccc(Cl)cc1)C[C@H]3O[C@H]1C[C@H](N)[C@H](O)[C@H](C)O1 | EMB-R | MIC |  |  |  |  |  | >12.5 µg/mL
Nc1ncnc2c1ncn2[C@@H]1O[C@H](COS(=O)(=O)NC(=O)c2ccccc2O)C[C@H]1O | H37Rv | MIC |  |  |  |  |  | 1.56 µM
O=C(N/N=C/c1ccc(O)cc1)c1cc(-c2ccc(Cl)cc2)n[nH]1 | H37Rv | MIC |  |  | broth dilution |  |  | 0.5 µg/mL
CCOc1ccc(N=Nc2sc(N)nc2-c2ccccc2)cc1 | H37Rv | MIC bound |  |  | BACTEC |  |  | >6.25 µg/mL
CCCCOC(=O)c1ccc2[nH]ncc2c1 | H37Ra | MIC |  |  | visual reading |  |  | 200 µM
S=C(S)Nc1ccc(Cl)cc1 | TAC-R | MIC |  |  |  |  |  | >12.5 µg/mL
CO[C@H]1/C=C/O[C@@]2(C)Oc3c(C)c(O)c4c(O)c(c(/C=N/N5CCN(C)CC5)c(O)c4c3C2=O)NC(=O)/C(C)=C\C=C\[C@H](C)[C@H](O)[C@@H](C)[C@@H](O)[C@@H](C)[C@H](OC(C)=O)[C@@H]1C | H37Rv-MA cydC::aph | MIC90 |  |  | turbidity / fluorescence |  |  | 0.031 µM
COC(=O)[C@@H]1[C@H](O)[C@H](C)C(O)[C@H](C)/C=C\C=C(/C)C(=O)Nc2c(C)c(OC(C)=O)c3c(c2O)C(=O)C(C)=C2OCOC(=C23)/C(C)=C/[C@@](C)(O)[C@H](O)[C@@H](C)[C@H]1OC(C)=O | H37Rv | inhibition |  | 12.8 µg/mL | BACTEC |  |  | 90%
O=C(Oc1ccccc1)c1ccc(NC(=O)c2ccccc2C(=O)O)cc1O | H37Rv | MIC |  |  |  |  |  | 0.125 µg/mL
CCN(CC)/N=C/c1c2c(O)c3c(O)c(C)c4c(c3c1O)C(=O)[C@@](C)(O/C=C/[C@H](OC)[C@@H](C)[C@@H](OC(C)=O)[C@H](C)[C@H](O)[C@H](C)[C@@H](O)[C@@H](C)/C=C/C=C(/C)C(=O)N2)O4 | H37Rv | EC50 |  |  |  |  |  | 0.02 µg/mL
O=C(NN1C(=O)[C@H](Cl)[C@H]1c1cccc([N+](=O)[O-])c1)c1cc(-c2ccc(Cl)cc2)n[nH]1 | H37Rv | MIC |  |  | broth dilution |  |  | 1.9 µg/mL
CC(C)c1ccc(NC(=O)C2(c3cccs3)CCOCC2)cc1 | CDC1551 | EC50 |  |  | turbidity |  |  | 8.5 µM
CCCCOC(=O)c1ccc(NC(=O)c2ccccc2C(=O)O)cc1O | H37Rv | MIC |  |  |  |  |  | 20 µg/mL
[N-]=[N+]=N/C1=C/CCCCC(=O)C1 | H37Rv | MIC bound |  |  | BACTEC |  |  | >12.5 µg/mL
CCC#CCCCCCCCCN1C(=O)O[C@]2(C)[C@@H](CC)OC(=O)[C@H](C)C(=O)[C@H](C)[C@@H](O[C@@H]3O[C@H](C)C[C@H](N(C)C)[C@H]3O)[C@](C)(OC)C[C@@H](C)C(=O)[C@H](C)[C@@H]12 |  | MIC |  |  |  |  |  | 2.67 µM
Cc1cccc(C)c1NC(=S)NC=C(C(N)=O)C(N)=O | H37Rv | inhibition |  | 6.25 µg/mL | resazurin |  |  | -10%
O=C(Oc1ccc(Cl)cc1C(=O)Nc1ccc(C(F)(F)F)cc1)c1cnccn1 | multidrug resistant Praha 1 | MIC |  |  |  |  | 14 d | 0.125 µM
CCOC(=O)C(NC(=O)CC(C)C)(N1CCN(c2cc3c(cc2F)c(=O)c(C(=O)O)cn3C2CC2)CC1)C(F)(F)F | H37Rv | MIC | VERO |  |  |  |  | 0.78 µg/mL
CO[C@H]1/C=C/O[C@@]2(C)Oc3c(C)c(O)c4c(O)c(c(C=Nc5ccc(C)cc5)c(O)c4c3C2=O)NC(=O)/C(C)=C\C=C\[C@H](C)[C@H](O)[C@@H](C)[C@@H](O)[C@@H](C)[C@H](OC(C)=O)[C@@H]1C | H37Rv | EC50 |  |  |  |  |  | >5 µg/mL
CCCCCCCCCCCCCCCCCC(=O)OCCc1ccc(O)cc1 | H37Rv (ATCC 27294) | MIC |  |  |  |  |  | >128 µg/mL
Cc1cc(C)c(NC(=O)C2(c3cccs3)CCOCC2)c(C)c1 | CDC1551 | EC50 |  |  | turbidity |  |  | 200 µM
CC[C@H]1OC(=O)[C@H](C)C(=O)[C@H](C)[C@@H](O[C@@H]2O[C@H](C)C[C@H](N(C)C)[C@H]2O)[C@](C)(OC)C[C@@H](C)C(=O)[C@H](C)[C@@H](O)[C@]1(C)O |  | MIC |  |  |  |  |  | >128 µM
CCCCOC(=O)c1ccc2n[nH]nc2c1 | H37Ra | MIC |  |  | visual reading |  |  | 200 µM
CCc1nc2ccc(C)cc2n1CCCCNc1ccccc1 | H37Rv-LP | MIC90 |  |  | turbidity / fluorescence |  |  | 0.34 µM
CCOc1c(N=Nc2ccc(Cl)cc2Cl)c(C)nn1C(=S)S | EMB-R | MIC |  |  |  |  |  | 12.5 µg/mL
CC[C@H]1OC(=O)[C@H](C)C(=O)[C@H](C)[C@@H](O[C@@H]2O[C@H](C)C[C@H](N(C)C)[C@H]2O)[C@@](C)(C/C=C/c2cnc3ccccc3c2)C[C@@H](C)C(=O)[C@H](C)[C@H]2NC(=O)O[C@@]21C |  | MIC |  |  |  |  |  | 4 µM
CCOC(=O)c1csc(N)n1 | H37Rv | MIC bound |  |  | BACTEC |  |  | >6.25 µg/mL
C/C=C(\C)c1c(Br)c(O)c(C)c2c1Oc1cc(O)c(Br)c(C)c1C(=O)O2 | H37Ra | MIC |  |  | resazurin / visual reading |  |  | 100 µg/mL
O=c1/c(=C\c2ccccc2)sc2nc(-c3ccccc3)nn12 | H37Rv | inhibition |  | 12.5 µg/mL | BACTEC |  |  | 8%
CO[C@H]1/C=C/O[C@@]2(C)Oc3c(C)c(O)c4c(O)c(c(/C=N/N(C)c5ccccc5)c(O)c4c3C2=O)NC(=O)/C(C)=C\C=C\[C@H](C)[C@H](O)[C@@H](C)[C@@H](O)[C@@H](C)[C@H](OC(C)=O)[C@@H]1C | H37Rv | EC50 |  |  |  |  |  | 0.02 µg/mL
CCCC12C=C(OC)C(=O)C(C1=O)C(c1ccc3c(c1)OCO3)C2C | H37Rv | MIC bound |  |  | BACTEC |  |  | >12.5 µg/mL
C[C@H]1NCc2cc(-c3ccc4c(=O)c(C(=O)O)cn(C5CC5)c4c3OC(F)F)ccc21 | 10 strains | MIC50 |  |  |  |  |  | 0.0625 µg/mL
COC(C)CCOc1cc(O)c2c(c1N)C(=O)c1ccccc1C2=O | H37Rv | inhibition |  | 12.5 µg/mL | BACTEC |  |  | 6%
CCCCCCCCCCCCCCCCCCCCCC(=O)OCCc1ccc(O)cc1 | H37Rv (ATCC 27294) | MIC |  |  |  |  |  | >128 µg/mL